{
  "source": "PubChem BioAssay AID1979",
  "about": "(Broad Institute, 2009)",
  "note": "Only a part is listed here, and it is no random draw. Activity calls are given as the source filed them.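 Rule for the calls: active = growth inhibition above about 58% in most replicates (limit read from the data, passing the limit was not always enough); inconclusive = exactly half the replicates above a set limit; inactive = most replicates below a set limit.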",
  "data": [
    {"experiment": "Candida growth reduction under fluconazole – CaCi-2 strain, Alamar Blue fluorescence, primary screen (AID 1979);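 note: all wells also contain fluconazole at 8 µg/ml as a sub-toxic cotreatment; 0% = median of DMSO wells and 100% = median of geldanamycin control wells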", "settings": "C. albicans CaCi-2 (fluconazole-resistant clinical isolate) + fluconazole, 48 h, stronger effect = higher value, concentration not given here", "values": [
      {"molecule": "COc1ccc(C(=O)NCC2(N3CCCCC3)CCCCC2)cc1", "growth inhibition": "inactive: 2.5%"},
      {"molecule": "COc1ccc(C(=O)NCC2(N3CCCCC3)CCCCC2)c(OC)c1OC", "growth inhibition": "inactive: -17.7%"},
      {"molecule": "CC(C)(C)OC(=O)N1CCC(N(C(=O)c2ccccc2)c2ccc(F)cc2)CC1", "growth inhibition": "inactive: -2.45%"},
      {"molecule": "O=C(NCC1(N2CCCCC2)CCCCC1)c1ccc(=O)[nH]c1", "growth inhibition": "inactive: 2.16%"},
      {"molecule": "O=C(NCC1(N2CCCCC2)CCCCC1)c1cccs1", "growth inhibition": "inactive: -4.89%"},
      {"molecule": "CSc1ccccc1C(=O)NCC1(N2CCCCC2)CCCCC1", "growth inhibition": "inactive: -14.5%"},
      {"molecule": "O=C(NCC1(N2CCCCC2)CCCCC1)c1ccc(Cl)nc1", "growth inhibition": "inactive: 2.64%"},
      {"molecule": "Cc1cc(C)cc(N(C(=O)c2ccccc2)C2CCN(C(=O)OC(C)(C)C)CC2)c1", "growth inhibition": "inactive: -4.35%"},
      {"molecule": "O=C(NCC1(N2CCOCC2)CCCCC1)c1cc2ccccc2o1", "growth inhibition": "inactive: -0.052%"},
      {"molecule": "N#CC1(Nc2ccccc2)CCN(Cc2ccccc2)CC1", "growth inhibition": "inactive: 17.1%"},
      {"molecule": "O=C(OC1CN2CCC1CC2)C1c2ccccc2Oc2ccccc21", "note": "(configuration not stated)", "growth inhibition": "inactive: -38.5%"},
      {"molecule": "CCOC(=O)N1CCC(Nc2ccc(OC)cc2)CC1", "growth inhibition": "inactive: -19.6%"},
      {"molecule": "CCOc1ccc(C)cc1CN(CCCl)CCCl", "growth inhibition": "inactive: -9.01%"},
      {"molecule": "O=C(NCC1(N2CCCCC2)CCCCC1)c1ccc(F)cc1", "growth inhibition": "inactive: -4.13%"},
      {"molecule": "COc1ccc(NC2CCN(CCc3ccccc3)CC2)c(OC)c1", "growth inhibition": "inactive: -43.1%"},
      {"molecule": "CCOC(=O)N1CCC(Nc2ccc(F)cc2)CC1", "growth inhibition": "inactive: -38.8%"},
      {"molecule": "CCOC(=O)N1CCC(Nc2cccc(C)c2)CC1", "growth inhibition": "inactive: -6.8%"},
      {"molecule": "COc1cc(C(=O)NCC2(N(C)C)CCCCC2)ccc1OC(F)F", "growth inhibition": "inactive: -0.536%"},
      {"molecule": "Cc1ccc(OCC(C)C)c(CN(CCCl)CCCl)c1", "growth inhibition": "inactive: -19.7%"},
      {"molecule": "O=C(NCC1(N2CCCCC2)CCCCC1)c1ccc(OC(F)F)cc1", "growth inhibition": "inactive: 4.19%"},
      {"molecule": "CCN1CCC(Nc2ccc(Cl)cc2)CC1", "growth inhibition": "inactive: -2.18%"},
      {"molecule": "N#CC1(Nc2ccccc2)CCN(CCc2ccccc2)CC1", "growth inhibition": "inactive: -2.47%"},
      {"molecule": "O=C(NCC1(N2CCCCC2)CCCCC1)c1cccc([N+](=O)[O-])c1", "growth inhibition": "inactive: -2.92%"},
      {"molecule": "O=C(NCC1(N2CCCCC2)CCCCC1)c1cccc(C(F)(F)F)c1", "growth inhibition": "inactive: -7.92%"},
      {"molecule": "COc1cc(C(=O)NCC2(N3CCCCC3)CCCCC2)ccc1OC(F)F", "growth inhibition": "inactive: 3.19%"},
      {"molecule": "O=C(NCC1(N2CCOCC2)CCCCC1)c1cc(=O)[nH]c2ccccc12", "growth inhibition": "inactive: -12.8%"},
      {"molecule": "CN1CCN(CCOC(=O)C(O)(c2ccccc2)c2ccccc2)CC1", "growth inhibition": "inactive: 0.996%"},
      {"molecule": "COc1ccc(NC2CCN(C(=O)OC(C)(C)C)CC2)cc1", "growth inhibition": "inactive: 1.16%"},
      {"molecule": "CC(C)c1ccc(NC2CCN(C(=O)OC(C)(C)C)CC2)cc1", "growth inhibition": "inactive: -40.6%"},
      {"molecule": "COc1ccc(CN(CCCl)CCCl)cc1Cl", "growth inhibition": "inactive: 5.23%"},
      {"molecule": "CN(C)c1cccc(C(=O)NCC2(N3CCCCC3)CCCCC2)c1", "growth inhibition": "inactive: -3.42%"},
      {"molecule": "COc1cc(OC)c(C(=O)NCC2(N(C)C)CCCCC2)cc1OC", "growth inhibition": "inactive: -3.08%"},
      {"molecule": "CN1CCC(Nc2cccc(F)c2)CC1", "growth inhibition": "inactive: 34.8%"},
      {"molecule": "CCCOc1ccc(C(=O)NCC2(N(C)C)CCCCC2)cc1OC", "growth inhibition": "inactive: -6.75%"},
      {"molecule": "COc1ccc(C(=O)NCC2(N3CCOCC3)CCCCC2)cc1OC", "growth inhibition": "inactive: 13.3%"},
      {"molecule": "CCOC(=O)N1CCC(Nc2ccc(C)cc2)CC1", "growth inhibition": "inactive: -12.5%"},
      {"molecule": "N/C(=N\\O)c1c(N)no[n+]1[O-]", "growth inhibition": "inactive: 0.263%"},
      {"molecule": "CCc1cc(C(=O)NCC2(N3CCCCC3)CCCCC2)sc1C", "growth inhibition": "inactive: -1.24%"},
      {"molecule": "O=C(OC1CN2CCC1CC2)C1c2ccccc2C=Cc2ccccc21", "note": "(configuration not stated)", "growth inhibition": "inactive: -2.12%"},
      {"molecule": "N#Cc1ccc(C(=O)NCC2(N3CCCCC3)CCCCC2)cc1", "growth inhibition": "inactive: -10.5%"},
      {"molecule": "CC(C)(C)OC(=O)N1CCC(N(C(=O)c2ccccc2)c2ccc(Cl)cc2)CC1", "growth inhibition": "inactive: 5.87%"},
      {"molecule": "c1ccc(CN2CCC(Nc3ccccc3)CC2)cc1", "growth inhibition": "inactive: -0.439%"},
      {"molecule": "CCCN1CCC(Nc2cc(OC)cc(OC)c2)CC1", "growth inhibition": "inactive: 6.07%"},
      {"molecule": "COc1cc(OC)cc(C(=O)NCC2(N3CCCCC3)CCCCC2)c1", "growth inhibition": "inactive: -8.69%"},
      {"molecule": "Cc1ccc(C(=O)NCC2(N3CCCCC3)CCCCC2)o1", "growth inhibition": "inactive: -9.98%"},
      {"molecule": "CCN1CCC(Nc2cccc(F)c2)CC1", "growth inhibition": "inactive: -14.3%"},
      {"molecule": "CN(C)c1ccc(C(=O)NCC2(N3CCCCC3)CCCCC2)cc1", "growth inhibition": "inactive: 3.4%"},
      {"molecule": "CCOc1ncccc1C(=O)NCC1(N2CCOCC2)CCCCC1", "growth inhibition": "inactive: -4.87%"},
      {"molecule": "CN1CCC(Nc2ccc(F)c(Cl)c2)CC1", "growth inhibition": "inactive: -0.0204%"},
      {"molecule": "CC(C)(C)OC(=O)N1CCC(Nc2ccccc2)CC1", "growth inhibition": "inactive: -9.95%"},
      {"molecule": "O=C(O)C1(Nc2ccccc2)CCN(Cc2ccccc2)CC1", "growth inhibition": "inactive: -2.06%"},
      {"molecule": "CCCOc1ccc(C(=O)NCC2(N(C)C)CCCCC2)cc1", "growth inhibition": "inactive: 0.0428%"},
      {"molecule": "COc1cc(OC)cc(C(=O)NCC2(N3CCOCC3)CCCCC2)c1", "growth inhibition": "inactive: -3.34%"},
      {"molecule": "COc1cccc(C(=O)N(c2cc(C)cc(C)c2)C2CCN(C(=O)OC(C)(C)C)CC2)c1", "growth inhibition": "inactive: -0.455%"},
      {"molecule": "CCC(CO)(C(=O)OC1CN2CCC1CC2)c1ccccc1", "note": "(configuration not stated)", "growth inhibition": "inactive: 5.5%"},
      {"molecule": "CN1CCC(Nc2ccc(Cl)cc2)CC1", "growth inhibition": "inactive: -4.65%"},
      {"molecule": "CCCOc1ccc(C)cc1CN(CCCl)CCCl", "growth inhibition": "inactive: -6.98%"}
    ]}
  ]
}
